The values below come from article PMC11599015, “Dimerization of Rabies Virus Phosphoprotein and Phosphorylation of Its Nucleoprotein Enhance Their Binding Affinity” (2024).

In this test the target is RABV phosphoprotein (P).

“RABV nucleoprotein (N) same, then treated with CKII”: the “other: share of bound P2 dissociating too slowly to measure” value is on record as “stronger; reference about 5”.
